{"source": "PubChem BioAssay AID624099 (ICCB-Longwood, 2012)", "aim": "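Human genes that papillomavirus E2 requires to repress the HPV18 LCR promoter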 (primary screen)", "cell system": "human C33A cervical carcinoma cells (HPV-negative) stably expressing BPV1 E2 and an HPV18 LCR luciferase reporter", "reagents": "siRNA pool against human genes, 40 nM", "timing": "72 h", "measurement": "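HPV18 LCR reporter light per well, converted to plate-wise z-scores that exclude control wells, and averaged over triplicate plates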", "reading the numbers": "mean z-score and z-score: higher = stronger reporter signal, weaker E2 silencing", "call rule": "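Hit if mean z-score reaches 2 and two or more of three replicate z-scores also reach 2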", "note": "Here is an unselected part of about 21,000 deposited reagents. 497 of all reagents (2.4%) count as active. 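Higher z means weaker E2 silencing; only reporter increases were scored, and knock-downs that hurt cell survival may mask genuine repressor factors.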 Reagent sequences are not shown."}
{"Gene": "PATE2", "mean z-score": 0.04, "z-score, replicate A": 0.52, "z-score, replicate B": -0.56, "z-score, replicate C": 0.15, "activity call": "inactive"}
{"Gene": "VPS26B", "mean z-score": 0.45, "z-score, replicate A": 0.43, "z-score, replicate B": 0.56, "z-score, replicate C": 0.36, "activity call": "inactive"}
{"Gene": "STARD9", "mean z-score": -0.57, "z-score, replicate A": -0.76, "z-score, replicate B": -0.52, "z-score, replicate C": -0.42, "activity call": "inactive"}
{"Gene": "LRCH3", "mean z-score": -0.79, "z-score, replicate A": -0.59, "z-score, replicate B": -0.72, "z-score, replicate C": -1.07, "activity call": "inactive"}
{"Gene": "TMED3", "mean z-score": -0.54, "z-score, replicate A": -0.33, "z-score, replicate B": -0.78, "z-score, replicate C": -0.52, "activity call": "inactive"}
{"Gene": "DKKL1", "mean z-score": 0.64, "z-score, replicate A": 0.98, "z-score, replicate B": 0.57, "z-score, replicate C": 0.38, "activity call": "inactive"}
{"Gene": "CHRNA3", "mean z-score": -1.2, "z-score, replicate A": -1.26, "z-score, replicate B": -1.27, "z-score, replicate C": -1.06, "activity call": "inactive"}
{"Gene": "LAMB2", "mean z-score": -0.13, "z-score, replicate A": -0.23, "z-score, replicate B": -0.17, "z-score, replicate C": 0, "activity call": "inactive"}
{"Gene": "MBNL1", "mean z-score": -0.86, "z-score, replicate A": -0.99, "z-score, replicate B": -0.85, "z-score, replicate C": -0.75, "activity call": "inactive"}
{"Gene": "DEPDC7", "mean z-score": 0.01, "z-score, replicate A": -0.18, "z-score, replicate B": -0.26, "z-score, replicate C": 0.45, "activity call": "inactive"}
{"Gene": "C12orf71", "mean z-score": 0.24, "z-score, replicate A": 0.66, "z-score, replicate B": -0.1, "z-score, replicate C": 0.17, "activity call": "inactive"}
{"Gene": "NELFA", "mean z-score": -0.88, "z-score, replicate A": -0.86, "z-score, replicate B": -0.77, "z-score, replicate C": -1, "activity call": "inactive"}
